The record followed here is patent US20020164348A1 (priority 2000, published 2002).

The target in series [1] is pJG-human rhinovirus 14 3D prey fusion (human rhinovirus 14) (UniProt P03303).
Series [2] addresses pJG-human rhinovirus 14 3D prey fusion, human rhinovirus 14, P03303 1720-2179.
Series [3] has as its target pJG-poliovirus 3D prey fusion (pJGPolio3D), poliovirus Mahoney type 1, P03300 1749-2209.
The target of series [4] is pJG-poliovirus 3D prey fusion (pJGPolio3D) (poliovirus Mahoney type 1) (UniProt P03300).
In series [5] the target is T1, pJG-poliovirus 3D prey fusion (pJGPolio3D) (poliovirus Mahoney type 1, UniProt P03300 1749-2209).
T1 sequence: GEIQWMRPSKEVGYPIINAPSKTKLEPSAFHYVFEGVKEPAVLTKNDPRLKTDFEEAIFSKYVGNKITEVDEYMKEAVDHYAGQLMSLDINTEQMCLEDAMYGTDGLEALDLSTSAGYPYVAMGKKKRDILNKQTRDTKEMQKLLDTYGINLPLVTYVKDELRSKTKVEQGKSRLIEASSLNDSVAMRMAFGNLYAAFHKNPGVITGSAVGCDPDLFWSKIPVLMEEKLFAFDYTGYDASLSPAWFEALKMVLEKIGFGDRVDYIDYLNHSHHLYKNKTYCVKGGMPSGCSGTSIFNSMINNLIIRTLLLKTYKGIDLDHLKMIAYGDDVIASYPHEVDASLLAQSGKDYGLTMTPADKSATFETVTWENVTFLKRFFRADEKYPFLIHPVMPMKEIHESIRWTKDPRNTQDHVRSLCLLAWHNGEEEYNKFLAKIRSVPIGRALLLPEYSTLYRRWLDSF

In series [6] the target is T2, Peptide 1.
T2 chain: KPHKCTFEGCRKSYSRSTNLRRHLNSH

In series [1], “Lex202 vector control (bait vector without a polymerase) (from UniProt P0A7C2 1-202)” registered a beta-galactosidase activity of 35 Miller units. Regarding “LexA-poliovirus 3D bait fusion (LexPolio3D)”, the figures for the beta-galactosidase activity in series [2] and in series [3] were 963 miller units and 591 miller units, respectively.

For the molecule LexA-human rhinovirus 14 3D bait fusion, the beta-galactosidase activity in series [2] came out at 632 miller units; in series [3], 687 miller units.

Take “LexA-enterovirus 71 3D bait fusion (from UniProt P0A7C2 1-202)”: the beta-galactosidase activity in series [1] stood at 65 Miller units; in series [4], 23 Miller units.

B1: Lex202 vector control (bait vector without a polymerase) (other)
chain: MKALTARQQEVFDLIRDHISQTGMPPTRAEIAQRLGFRSPNAAEEHLKALARKGVIEIVSGASRGIRLLQEEEEGLPLVGRVAAGEPLLAQQHIEGHYQVDPSLFKPNADFLLRVSGMSMKDIGIMDGDLLAVHKTQDVRNGQVVVARIDDEVTVKRLKKQGNKVELLPENSEFKPIVVDLRQQSFTIEGLAVGVIRNGDWL
Turning to B1, the beta-galactosidase activity in series [5] came to 9 Miller units.

B2: poliovirus RNA-dependent RNA polymerase, wild type (Mahoney type 1), purified from E. coli (protein)
chain: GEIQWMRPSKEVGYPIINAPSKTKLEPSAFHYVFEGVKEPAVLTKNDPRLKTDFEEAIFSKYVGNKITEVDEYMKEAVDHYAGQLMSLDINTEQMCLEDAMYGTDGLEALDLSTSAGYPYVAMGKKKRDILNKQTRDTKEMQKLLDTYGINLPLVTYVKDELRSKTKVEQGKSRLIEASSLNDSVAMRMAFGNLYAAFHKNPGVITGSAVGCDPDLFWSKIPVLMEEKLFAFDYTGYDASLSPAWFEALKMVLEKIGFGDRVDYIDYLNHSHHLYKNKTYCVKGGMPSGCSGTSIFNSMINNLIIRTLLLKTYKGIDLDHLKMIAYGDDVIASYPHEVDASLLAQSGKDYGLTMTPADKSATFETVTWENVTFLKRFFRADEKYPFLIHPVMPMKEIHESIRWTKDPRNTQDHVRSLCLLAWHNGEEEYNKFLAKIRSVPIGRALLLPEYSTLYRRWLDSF
Regarding B2, in series [6], the “incorporation of labeled UTP on poly(A) with high concentrations of primer” value was “The dramatic stimulation observed in the presence of peptide”.
